Compound potency records, mixed from different reports. Data source: NIAID ChemDB in PubChem.

Common to all: enzyme or target tests

Blank or dashed fields: not listed here. ICn is the concentration giving n% inhibition. Conditions beyond the fields shown may differ between rows. Percent inhibition refers to the dose given; in toxicity tests it is the harm to the cells.

structure | protein | organism | endpoint | tested at | value
O=P(O)(O)CP(=O)(O)O | DNA polymerase | Herpes simplex virus 1 | IC50 | - | >500 µM
[N-]=[N+]=NC[C@H]1O[C@@H](n2cc(I)c(=O)[nH]c2=O)C[C@@H]1O | Thymidine kinase | Herpes simplex virus 1 | IC50 | - | 0.28 µM
O=P(O)(O)P(=O)(O)O | DNA polymerase | Herpes simplex virus 2 | IC50 | - | 12 µM
O=C(O)C(Br)(Br)P(=O)(O)O | DNA polymerase | Herpes simplex virus 2 | IC50 | - | >100 µM
Oc1cc(O)c2ccccc2c1 | Protease | Herpes simplex virus 1 | IC50 | - | >100 µM
CC(C)CC(=O)NC[C@H]1O[C@@H](n2cc(I)c(=O)[nH]c2=O)C[C@@H]1O | Thymidine kinase | Herpes simplex virus 1 | IC50 | - | 0.16 µM
Oc1ccc2ccc(O)cc2c1 | Protease | Herpes simplex virus 1 | IC50 | - | >100 µM
CCOC(=O)NC[C@H]1O[C@@H](n2cc(I)c(=O)[nH]c2=O)C[C@@H]1O | Thymidine kinase | Herpes simplex virus 1 | IC50 | - | 0.29 µM
O=P(O)(O)C(F)(F)P(=O)(O)O | DNA polymerase | Herpes simplex virus 1 | IC50 | - | >100 µM
O=C(NC[C@H]1O[C@@H](n2cc(I)c(=O)[nH]c2=O)C[C@@H]1O)c1ccccc1 | Thymidine kinase | Herpes simplex virus 1 | IC50 | - | >0.05 µM
CC(Cl)(C(=O)O)P(=O)(O)O | DNA polymerase | Herpes simplex virus 2 | IC50 | - | >100 µM
O=C(O)C(=O)O | DNA polymerase | Herpes simplex virus 2 | IC50 | - | 400 µM
O=C(O)C(F)(Br)P(=O)(O)O | DNA polymerase | Herpes simplex virus 2 | IC50 | - | 70 µM
O=C1C=CC(=O)c2c(O)cccc21 | Protease | Herpes simplex virus 1 | IC50 | - | 9.3 µM
CC(C(=O)O)P(=O)(O)O | DNA polymerase | Herpes simplex virus 1 | IC50 | - | 15 µM
CC(Br)(C(=O)O)P(=O)(O)O | DNA polymerase | Herpes simplex virus 2 | IC50 | - | >100 µM
Cc1cn([C@H]2C[C@H](O)[C@@H](CN)O2)c(=O)[nH]c1=O | Thymidine kinase | Herpes simplex virus 1 | IC50 | - | 1.4 µM
O=C(O)CP(=O)(O)O | DNA polymerase | Herpes simplex virus 2 | IC50 | - | 0.7 µM
CC(F)(C(=O)O)P(=O)(O)O | DNA polymerase | Herpes simplex virus 2 | inhibition | 100 µM | 0%
CC(O)(P(=O)(O)O)P(=O)(O)O | DNA polymerase | Herpes simplex virus 1 | IC50 | - | >500 µM
CC(C)C(=O)NC[C@H]1O[C@@H](n2cc(I)c(=O)[nH]c2=O)C[C@@H]1OC(=O)C(C)C | Thymidine kinase | Herpes simplex virus 1 | IC50 | - | 0.36 µM

2 of the rows above, restated:

structure	protein	organism	endpoint	tested at	value
CC(F)(C(=O)O)P(=O)(O)O	DNA polymerase	Herpes simplex virus 2	inhibition	100 µM	0%
Cc1cn([C@H]2C[C@H](O)[C@@H](CN)O2)c(=O)[nH]c1=O	Thymidine kinase	Herpes simplex virus 1	IC50	-	1.4 µM